Percent effect of library compounds

Values are the deposited “Percent Effect”, in %.
The record does not define 0% and 100%; most values in the screen are far below 50% and negative numbers occur (in some assays of this library far below -100).
Many other results are left out here, so strong results are more common than in the screen.

Mtb glucose medium: 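Phenotypic screen: M. tuberculosis growth, glucose 7H9 medium, 3 days; the read-out is not stated. Concentration: 500 µM. Higher reads as more growth inhibition (inferred: compounds with an IC50 in retests scored well above the rest). Size under these conditions: about 18,000 compounds, about 1,400 of them at 50% or above in at least one test.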
Mtb cholesterol medium: 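Whole-cell growth test on Mycobacterium tuberculosis, read after 4 days in a medium based on cholesterol and the lipid DPPC; the read-out is not stated. Concentration: 500 µM. Higher reads as more growth inhibition (inferred: compounds with an IC50 in retests scored well above the rest). Of about 18,000 compounds tested this way, about 900 (5%) reached 50% or more in at least one test.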

{"compound": "COCCS(=O)(=O)NCC(C)(O)c1cccs1", "stereo": "centres undefined", "Mtb glucose medium": 10.19}
{"compound": "c1cn2nc(N3CCCC3)ccc2n1", "Mtb glucose medium": 18.15}
{"compound": "Cc1nccn1CCCN1CCCC1C(=O)N(C)C", "stereo": "centres undefined", "Mtb cholesterol medium": -2.139}
{"compound": "COc1ccccc1NC(=O)c1ccc(C)nc1", "Mtb glucose medium": 51.59, "Mtb cholesterol medium": 25.24}
{"compound": "COC(=O)C1CCCCN1C(=O)c1cccn1C", "stereo": "centres undefined", "Mtb glucose medium": 16.84}
{"compound": "Cc1ccncc1NS(=O)(=O)Cc1ccccc1", "Mtb glucose medium": -1.966}
{"compound": "CC(N)C(=O)N(CCN(C)C)Cc1ccccc1F", "stereo": "centres undefined", "Mtb glucose medium": 17.63}
{"compound": "CCC(N)c1cnn(CC)c1", "stereo": "centres undefined", "Mtb cholesterol medium": 65.72}
{"compound": "CCCN1CCN(C(=O)COc2ccccc2)CC1", "Mtb glucose medium": 50.36, "Mtb cholesterol medium": 57.63}
{"compound": "NCc1cnn(-c2ccc(F)cc2)c1", "Mtb glucose medium": 41.15, "Mtb cholesterol medium": 21.8}
{"compound": "Cc1nn(CCCN)c(C)c1Br", "Mtb glucose medium": 65.86, "Mtb cholesterol medium": 22.35}
{"compound": "COc1ccc(OCC(O)CN2CCN(C)CC2)cc1", "stereo": "centres undefined", "Mtb cholesterol medium": 4.288}
{"compound": "CC1(C2CCCN(C(=O)c3ccncc3)C2)OCCO1", "stereo": "centres undefined", "Mtb glucose medium": 0.02987}
{"compound": "CN(Cc1ccc(Br)cc1)C(=O)CSc1nc(N)n[nH]1", "Mtb glucose medium": 68.21, "Mtb cholesterol medium": 46.68}
{"compound": "NC(=O)C1CCCN(CCCc2ccccc2)C1", "stereo": "centres undefined", "Mtb glucose medium": 19.56}
{"compound": "COc1ccc(C(C)=O)cc1CN1CCCC1", "Mtb glucose medium": -14.44}
{"compound": "CC1(C)CN(C(=O)c2cnc3ccccn23)CCS1", "Mtb glucose medium": -15.3}
{"compound": "CC(C)n1cc(CN)nn1", "Mtb glucose medium": 3.961}
{"compound": "CN1CCN(C(=O)Cn2ccc(N)n2)CC1", "Mtb glucose medium": -5.576}
{"compound": "c1coc(C2CCNCC2)n1", "Mtb cholesterol medium": -12.23}
{"compound": "COCCNC(=O)CN(C)Cc1ccc(C)o1", "Mtb glucose medium": 22.02}
{"compound": "Cc1cn(CCNC(=O)c2cc(CC(C)C)n[nH]2)nn1", "Mtb glucose medium": 12.21}
{"compound": "CC(=O)N(C)c1ccc(S(N)(=O)=O)cc1", "Mtb glucose medium": 0.296}
{"compound": "O=C(c1ccc2c(c1)OCCO2)C1CCNCC1", "Mtb cholesterol medium": 21.07}
{"compound": "CNCCc1ccc(C#N)cc1", "Mtb glucose medium": 17.62}
{"compound": "CCC1CN(S(=O)(=O)c2cccc(C#N)c2)CCO1", "stereo": "centres undefined", "Mtb glucose medium": -0.6558}
{"compound": "CCc1noc(CN2CCCC(O)C2)n1", "stereo": "centres undefined", "Mtb glucose medium": 11.08}
{"compound": "Cc1cccc(-n2cc(CN)cn2)c1", "Mtb glucose medium": 44.26, "Mtb cholesterol medium": 40.27}
{"compound": "O=C(Nc1ccc(F)c(Cl)c1)N1CCC(O)C1", "stereo": "centres undefined", "Mtb glucose medium": 72.08, "Mtb cholesterol medium": 64.62}
{"compound": "O=C(NC1CC(=O)N(Cc2cccc(F)c2)C1)C1CC1", "stereo": "centres undefined", "Mtb glucose medium": 17.37}
{"compound": "CO[C@H]1CN(C(=O)c2csc(CN(C)C)n2)CC[C@H]1N", "Mtb glucose medium": -2.562}
{"compound": "CCN1CCC(NC(=O)c2c(F)cccc2OC)C1", "stereo": "centres undefined", "Mtb cholesterol medium": -16.09}
{"compound": "COCCN(C)CCCNC(=O)c1cc(C2CC2)on1", "Mtb glucose medium": 17}
{"compound": "Fc1ccccc1CN1CCn2ccnc2C1", "Mtb glucose medium": -8.789}
{"compound": "O=C(CCN1CCN(CCO)CC1)Nc1ccccc1", "Mtb glucose medium": 8.999}
{"compound": "CO[C@H]1C[C@@H](O)C12CCN(c1cc(N)ncn1)CC2", "Mtb glucose medium": 2.579}
{"compound": "CN(Cc1ncc[nH]1)C(=O)C(O)c1cccc(Cl)c1", "stereo": "centres undefined", "Mtb glucose medium": 14.27}
{"compound": "CN(C)CCCOc1cnccc1CN", "Mtb cholesterol medium": -9.153}
{"compound": "CCc1nncn1C1CCNCC1", "Mtb glucose medium": -8.966}
{"compound": "Cn1c(=O)oc2ccc(NC(=O)C3COCCN3)cc21", "stereo": "centres undefined", "Mtb glucose medium": -13.36, "Mtb cholesterol medium": -19.9}
{"compound": "NC(=O)NC1CCN(C(=O)Cc2ccc(Br)cc2)CC1", "Mtb cholesterol medium": -13.37}
{"compound": "Cc1cccc(NC(=O)CCc2ccco2)n1", "Mtb cholesterol medium": -19.1}
{"compound": "NC(=O)CCNC1CCOc2ccccc21", "stereo": "centres undefined", "Mtb glucose medium": 0.9758}
{"compound": "CC(C)OC1CCC(N)CC1", "stereo": "centres undefined", "Mtb glucose medium": -16.08}

5 of the entries, repeated:

{"compound": "Cc1cccc(-n2cc(CN)cn2)c1", "Mtb glucose medium": 44.26, "Mtb cholesterol medium": 40.27}
{"compound": "O=C(Nc1ccc(F)c(Cl)c1)N1CCC(O)C1", "stereo": "centres undefined", "Mtb glucose medium": 72.08, "Mtb cholesterol medium": 64.62}
{"compound": "CN1CCN(C(=O)Cn2ccc(N)n2)CC1", "Mtb glucose medium": -5.576}
{"compound": "O=C(CCN1CCN(CCO)CC1)Nc1ccccc1", "Mtb glucose medium": 8.999}
{"compound": "c1coc(C2CCNCC2)n1", "Mtb cholesterol medium": -12.23}

Measurements from “University of Dundee, Small-Polar-MMV Screening Library” (2021), ChEMBL document CHEMBL3988442.